A mixed list of measured activities; the numbers were collected in NIAID ChemDB.

Shared fields: growth or infection tests; organism: Candida albicans

Neighbouring rows are from separate reports.

structure	strain	method	conditions	read-out	dose	result
COC(=O)[C@H]1[C@@H]2C[C@@H](O[C@@H]3O[C@H](C)[C@@H](O)[C@H](N)[C@@H]3O)/C=C/C=C/C=C/C=C/C=C/C=C/C=C/[C@H](C)[C@@H](O)[C@H](C)[C@H](C)OC(=O)C[C@H](O)C[C@H](O)[C@@H](O)CC[C@H](O)C[C@H](O)C[C@](O)(C[C@@H]1O)O2	15 isolates	broth dilution	pH 6	EC90	-	2 µg/mL
C[C@@H](N1CCN(Cc2cn(Cc3ccc(C(F)(F)F)cc3)c3ccccc23)CC1)[C@](O)(Cn1cncn1)c1ccc(F)cc1F	ATCC 64548	resazurin	-	MIC80	-	0.125 µg/mL
CC(C)(O)c1cn(-c2cccc3ccccc23)nn1	URM 4388	broth dilution	-	inhibition	2048 µg/mL	0%
OC(CN1CCN(c2ccc(OCc3ccncc3)cc2)CC1)(Cn1cncn1)c1ccc(F)cc1F	276	-	-	MIC80	-	2 µg/mL
Nc1[nH]c(=O)ncc1F	15 isolates	broth dilution	pH 4	EC90	-	0.25 µg/mL
C=CCc1ccc(Cn2cc(CN3CCN([C@H](C)[C@](O)(Cn4cncn4)c4ccc(F)cc4F)CC3)c3ccccc32)cc1	ATCC 64548	resazurin	-	MIC80	-	0.125 µg/mL
Clc1ccc(COC(Cn2ccnc2)c2ccc(Cl)cc2Cl)c(Cl)c1	10 isolates	broth dilution	pH 5	EC90	-	1 µg/mL
C[C@@H](N1CCN(Cc2cn(Cc3ccc(F)cc3F)c3c(C#N)cccc23)CC1)[C@](O)(Cn1cncn1)c1ccc(F)cc1F	ATCC 36082	resazurin	-	MIC80	-	1 µg/mL
CC(C)(O)c1cn(-c2ccc3ccccc3c2)nn1	URM 3719	broth dilution	-	inhibition	2048 µg/mL	0%
NCCCC[C@H](NC(=O)[C@@H](N)CCCCN)C(=O)N[C@@H](CCC(N)=O)C(=O)N[C@@H](CCCN=C(N)N)C(=O)O	ATCC 10231	-	-	inhibition	50 µM	0%
C[C@@H](c1ncncc1F)[C@](O)(Cn1cncn1)c1ccc(F)cc1F	10 isolates	broth dilution	pH 5	EC90	-	1 µg/mL
C=CCc1ccc(OC)c(OC)c1	3021	turbidity	-	MIC90	-	350 µg/mL
C[C@@H](N1CCN(Cc2cn(Cc3cccc(C(F)(F)F)c3)c3ccccc23)CC1)[C@](O)(Cn1cncn1)c1ccc(F)cc1F	ATCC 36082	resazurin	-	MIC80	-	0.125 µg/mL
CC(C)(O)c1cn(-c2ccc([N+](=O)[O-])cc2)nn1	URM 4385	broth dilution	-	inhibition	2048 µg/mL	0%
N=C(N)c1ccc2nc(-c3ccc(-c4nc5ccc(C(=N)N)cc5[nH]4)[nH]3)[nH]c2c1	A39	-	-	MFC	-	0.78 µg/mL
C[C@@H](N1CCN(Cc2cn(Cc3ccc(F)cc3F)c3cc(N=[N+]=[N-])ccc23)CC1)[C@](O)(Cn1cncn1)c1ccc(F)cc1F	ATCC 90028	resazurin	-	MIC80	-	0.125 µg/mL
CCC(C)n1ncn(-c2ccc(N3CCN(c4ccc(OC[C@H]5CO[C@](Cn6cncn6)(c6ccc(Cl)cc6Cl)O5)cc4)CC3)cc2)c1=O	12 isolates	-	-	MFC90	-	>8 µg/mL
C[C@@H](N1CCN(Cc2cn(Cc3ccc(F)cc3)c3ccccc23)CC1)[C@](O)(Cn1cncn1)c1ccc(F)cc1F	ATCC MYA-1003	resazurin	-	MIC80	-	16 µg/mL
Cc1ccc(-n2cc(C(C)(C)O)nn2)cc1C	URM 4819	broth dilution	-	inhibition	2048 µg/mL	0%

MIC50, MIC90 and the like: level of inhibition, or share of isolates inhibited. Percent inhibition refers to the dose given; in toxicity tests it is the harm to the cells. Blank or dashed fields: not listed here. ECn: concentration that inhibits the pathogen or its effect by n%.